Literature values, collected in patent US5108993A, “Pharmaceutical composition comprising zidovudine and inosiplex or components thereof for the treatment of aids-related syndromes” (priority 1988, dated 1992).

Test system: HIV
Conditions: with zidovudine; GB 2 181 128 A; cited from earlier work

Row | Molecule | effect on zidovudine
1 | interleukine II: interleukine II | synergistic effect
2 | beta-interferon: alpha-, beta, and gamma-interferons (protein, UniProt P01574 22-187, looked up) Interferon beta: MSYNLLGFLQRSSNFQCQKLLWQLNGRLEYCLKDRMNFDIPEEIKQLQQFQKEDAALTIYEMLQNIFAIFRQDSSSTGWNETIVENLLANVYHQINHLKTVLEEKLEKEDFTRGKLMSSLHLKRYYGRILHYLKAKEYSHCAWTIVRVEILRNFYFINRLTGYLRN | synergistic effect
